Compound potency records, mixed from different reports. Data source: NIAID ChemDB in PubChem.

Shared fields: growth or infection tests; species: Mycobacterium avium complex

Rows are shuffled and stem from different studies. A number after MIC or MFC names an inhibition level or a share of isolates. Blank or dashed fields: not listed here.

structure,strain or isolate,method,endpoint,result
Clc1cccc(CSc2nc3ccccc3[nH]2)c1,MY330/88,,MIC,62 µM
CN1CC2CCC1CN2c1c(F)cc2c(=O)c(C(=O)O)cn(C3CC3)c2c1F,,,MIC50,1 µg/mL
O=C(O)c1cn(C2CC2)c2nc(-n3ccnc3)c(F)cc2c1=O,14 strains,,MIC50,≥32 µg/mL
CC[C@H]1OC(=O)[C@H](C)[C@@H](O[C@H]2C[C@@](C)(OC)[C@@H](O)[C@H](C)O2)[C@H](C)[C@@H](O[C@@H]2O[C@H](C)C[C@H](N(C)C)[C@H]2O)[C@](C)(O)C[C@@H](C)C(=O)[C@H](C)[C@@H](O)[C@]1(C)O,3214,,MIC,16 µg/mL
C=CCSc1nc2ccccc2[nH]1,MY330/88,,MIC,500 µM
CC1CN(c2c(F)cc3c(=O)c(C(=O)O)cn(C4CC4)c3c2F)C(C)CN1,,,MIC90,4 µg/mL
NCC[C@H](O)C(=O)N[C@@H]1C[C@H](N)[C@@H](O[C@H]2O[C@H](CN)[C@@H](O)[C@H](O)[C@H]2O)[C@H](O)[C@H]1O[C@H]1O[C@H](CO)[C@@H](O)[C@H](N)[C@H]1O,3216,,MIC,16 µg/mL
NCC[C@H](O)C(=O)N[C@@H]1C[C@H](N)[C@@H](O[C@H]2O[C@H](CN)[C@@H](O)[C@H](O)[C@H]2O)[C@H](O)[C@H]1O[C@H]1O[C@H](CO)[C@@H](O)[C@H](N)[C@H]1O,CH-5/HIV+,,MIC,1.25 µg/mL
CCC1CN(c2nc3c(cc2F)c(=O)c(C(=O)O)cn3C(C)(C)C)CCN1,14 strains,,MIC50,2 µg/mL
CC1COc2c(N3CCN(C)CC3)c(F)cc3c(=O)c(C(=O)O)cn1c23,CIPT 140310023,,MIC,20 µg/mL
CC(C)CSc1nc2ccccc2[nH]1,MY330/88,,MIC,125 µM
COC1CCN(c2c(F)cc3c(=O)c(C(=O)O)cn(C4CC4)c3c2F)C1,1172733,,MIC,2 µg/mL
NC[C@H]1O[C@H](O[C@H]2[C@H](O)[C@@H](O[C@H]3O[C@H](CO)[C@@H](O)[C@H](N)[C@H]3O)[C@H](N)C[C@@H]2N)[C@H](O)[C@@H](O)[C@@H]1O,Isolate C-27,,MIC,50 µg/mL
O=C(O)c1cn(C2CC2)c2c(F)c(N3CCSCC3)c(F)cc2c1=O,14 strains,,MIC50,4 µg/mL
NNC(=O)c1ccncc1,13008 (serotype 20),,MIC,1.6 µg/mL
CCn1cc(C(=O)O)c(=O)c2cc(F)c(N3CCNCC3)cc21,,,MIC90,32 µg/mL
CC(C)N=c1cc2n(-c3ccc(Cl)cc3)c3ccccc3nc-2cc1Nc1ccc(Cl)cc1,1257/HIV-,,MIC,0.5 µg/mL
O=C(O)c1cn(C2CC2)c2c(F)c(N3CCN4CCC3C4)c(F)cc2c1=O,,,MIC90,4 µg/mL
CC[C@@H](CO)NCCN[C@@H](CC)CO,3216,,MIC,16 µg/mL
NCC[C@H](O)C(=O)N[C@@H]1C[C@H](N)[C@@H](O[C@H]2O[C@H](CN)[C@@H](O)[C@H](O)[C@H]2O)[C@H](O)[C@H]1O[C@H]1O[C@H](CO)[C@@H](O)[C@H](N)[C@H]1O,W6506,,MIC,8 µg/mL
NC[C@@H]1O[C@H](O[C@H]2[C@@H](O)[C@H](O[C@@H]3[C@@H](O)[C@H](N)C[C@H](N)[C@H]3O[C@H]3O[C@H](CO)[C@@H](O)[C@H](O)[C@H]3N)O[C@@H]2CO)[C@H](N)[C@@H](O)[C@@H]1O,Isolate 93,,MIC,1.56 µg/mL
Fc1ccccc1CSc1nc2ccccc2[nH]1,MY330/88,,MIC,125 µM
O=C(O)c1cn(C2CC2)c2c(F)c(N3CCNCC3)c(F)cc2c1=O,,,MIC90,4 µg/mL
CO[C@H]1/C=C/O[C@@]2(C)Oc3c(C)c(O)c4c(O)c(c5c(c4c3C2=O)NC2(CCN(CC(C)C)CC2)N=5)=NC(=O)/C(C)=C\C=C\[C@H](C)[C@H](O)[C@@H](C)[C@@H](O)[C@@H](C)[C@H](OC(C)=O)[C@@H]1C,52 isolates,,MIC90,1.56 µg/mL
NCCC(O)C(N)CC(=O)NC1CNC(=O)C(C2CCN=C(N)N2)NC(=O)/C(=C/NC(N)=O)NC(=O)C(CO)NC(=O)C(CO)NC1=O,Isolate 122,,MIC,100 µg/mL
CC1CN(c2c(F)cc3c(=O)c(C(=O)O)cn(C4CC4)c3c2F)CCN1,1760694,,MIC,4 µg/mL
c1ccc(CCSc2nc3ccccc3[nH]2)cc1,MY330/88,,MIC,>62 µM
NCC1CCN(c2c(F)cc3c(=O)c(C(=O)O)cn(C4CC4)c3c2F)C1,1172733,,MIC,2 µg/mL
CC(C)CN1CCN(c2cc3c(cc2F)c(=O)c(C(=O)O)cn3C(C)(C)C)CC1,14 strains,,MIC90,16 µg/mL
CCn1cc(C(=O)O)c(=O)c2cc(F)c(N3CCNCC3)nc21,CIPT 14031002,,MIC,>40 µg/mL
NC1CCN(c2c(F)cc3c(=O)c(C(=O)O)cn(C4CC4)c3c2F)C1,1988557,,MIC,8 µg/mL
CC[C@@H](CO)NCCN[C@@H](CC)CO,1069,,MIC,8 µg/mL
CO[C@H]1/C=C/O[C@@]2(C)Oc3c(C)c(O)c4c(O)c(c(/C=N/N5CCN(C/C=C/c6ccccc6)CC5)c(O)c4c3C2=O)NC(=O)/C(C)=C\C=C\[C@H](C)[C@H](O)[C@@H](C)[C@@H](O)[C@@H](C)[C@H](OC(C)=O)[C@@H]1C,SK40,,MIC,0.06 µg/mL
Cc1c(F)c(N2CCNC(C)C2)c(C(F)(F)F)c2c1c(=O)c(C(=O)O)cn2C1CC1,,,MIC50,8 µg/mL
O=C(O)c1cn(C2CC2)c2c(F)c(N3CCC(n4ccnc4)C3)c(F)cc2c1=O,1915112,,MIC,16 µg/mL
NC[C@H]1O[C@H](O[C@H]2[C@H](O)[C@@H](O[C@H]3O[C@H](CO)[C@@H](O)[C@H](N)[C@H]3O)[C@H](N)C[C@@H]2N)[C@H](O)[C@@H](O)[C@@H]1O,N-978 (HIV+),,MIC,4 µg/mL
NC[C@H]1O[C@H](O[C@H]2[C@H](O[C@@H]3O[C@H](CO)[C@@H](O)[C@H]3O)[C@@H](O)[C@H](N)C[C@@H]2N)[C@H](N)[C@@H](O)[C@@H]1O,Isolate 122,,MIC,25 µg/mL
NCC1CN(c2c(F)cc3c(=O)c(C(=O)O)cn(C4CC4)c3c2F)CC1c1ccccc1,1988557,,MIC,4 µg/mL
NC1CC2CCC(C1)N2c1nc2c(cc1F)c(=O)c(C(=O)O)cn2C1CC1,14 strains,,MIC90,16 µg/mL
CN(C)c1c(F)c(N2CCC(N(C)C)C2)c(F)c2c1c(=O)c(C(=O)O)cn2C1CC1,PI12/39,,MIC,32 µg/mL
CC1COc2c(N3CCN(C)CC3)c(F)cc3c(=O)c(C(=O)O)cn1c23,1110/HIV-,,MIC,8 µg/mL
NCCC[C@H](N)CC(=O)N[C@H]1CNC(=O)[C@H]([C@H]2C[C@H](O)NC(N)=N2)NC(=O)/C(=C/NC(N)=O)NC(=O)[C@H](CO)NC(=O)[C@H](CO)NC1=O,TMC 1467,,MIC,0.19 µg/mL
NCCC(O)C(N)CC(=O)NC1CNC(=O)C(C2CCN=C(N)N2)NC(=O)/C(=C/NC(N)=O)NC(=O)C(CO)NC(=O)C(CO)NC1=O,13887 (serotype 14),,MIC,1.6 µg/mL
CCn1cc(C(=O)O)c(=O)c2cc(F)c(N3CCNCC3)nc21,14 strains,,MIC50,≥32 µg/mL
O=C(O)c1cn(C2CC2)c2c(F)c(N3CCS(=O)CC3)c(F)cc2c1=O,,,MIC50,1 µg/mL
CCC1CCN(c2c(F)cc3c(=O)c(C(=O)O)cn(C4CC4)c3c2F)C1,1988557,,MIC,2 µg/mL
C[C@@H]1CN(c2c(F)c(N)c3c(=O)c(C(=O)O)cn(C4CC4)c3c2F)C[C@H](C)N1,30,broth dilution,MIC,1 µg/mL
COC1CCN(c2c(F)cc3c(=O)c(C(=O)O)cn(C4CC4)c3c2F)C1,,,MIC90,4 µg/mL
CC(C)N=c1cc2n(-c3ccc(Cl)cc3)c3ccccc3nc-2cc1Nc1ccc(Cl)cc1,5718,,MIC,4 µg/mL
CO[C@H]1/C=C/O[C@@]2(C)Oc3c(C)c(O)c4c(O)c(c(/C=N/N5CCN(C)CC5)c(O)c4c3C2=O)NC(=O)/C(C)=C\C=C\[C@H](C)[C@H](O)[C@@H](C)[C@@H](O)[C@@H](C)[C@H](OC(C)=O)[C@@H]1C,1129,,MIC,2 µg/mL
CO[C@H]1/C=C/O[C@@]2(C)Oc3c(C)c(O)c4c(O)c(c5c(c4c3C2=O)NC2(CCN(CC(C)C)CC2)N=5)=NC(=O)/C(C)=C\C=C\[C@H](C)[C@H](O)[C@@H](C)[C@@H](O)[C@@H](C)[C@H](OC(C)=O)[C@@H]1C,921-5,,MIC,2 µg/mL
COc1c(N2CCNC(C)C2)c(F)cc2c(=O)c(C(=O)O)cn(C3CC3)c12,14 strains,,MIC90,2 µg/mL
CN[C@@H]1[C@@H](O)[C@@H](O[C@@H]2[C@@H](O)[C@H](O[C@H]3O[C@H](CN)CC[C@H]3N)[C@@H](N)C[C@H]2N)OC[C@]1(C)O,Isolate 135,,MIC,6.25 µg/mL
N#Cc1ccc(CSc2nc3ccccc3[nH]2)cc1,MY330/88,,MIC,32 µM
COc1c(N2CCNCC2)c(F)cc2c(=O)c(C(=O)O)cn(C3CC3)c12,14 strains,,MIC90,4 µg/mL

The last 7 rows once more:

structure	strain or isolate	method	endpoint	result
CC(C)N=c1cc2n(-c3ccc(Cl)cc3)c3ccccc3nc-2cc1Nc1ccc(Cl)cc1	5718		MIC	4 µg/mL
CO[C@H]1/C=C/O[C@@]2(C)Oc3c(C)c(O)c4c(O)c(c(/C=N/N5CCN(C)CC5)c(O)c4c3C2=O)NC(=O)/C(C)=C\C=C\[C@H](C)[C@H](O)[C@@H](C)[C@@H](O)[C@@H](C)[C@H](OC(C)=O)[C@@H]1C	1129		MIC	2 µg/mL
CO[C@H]1/C=C/O[C@@]2(C)Oc3c(C)c(O)c4c(O)c(c5c(c4c3C2=O)NC2(CCN(CC(C)C)CC2)N=5)=NC(=O)/C(C)=C\C=C\[C@H](C)[C@H](O)[C@@H](C)[C@@H](O)[C@@H](C)[C@H](OC(C)=O)[C@@H]1C	921-5		MIC	2 µg/mL
COc1c(N2CCNC(C)C2)c(F)cc2c(=O)c(C(=O)O)cn(C3CC3)c12	14 strains		MIC90	2 µg/mL
CN[C@@H]1[C@@H](O)[C@@H](O[C@@H]2[C@@H](O)[C@H](O[C@H]3O[C@H](CN)CC[C@H]3N)[C@@H](N)C[C@H]2N)OC[C@]1(C)O	Isolate 135		MIC	6.25 µg/mL
N#Cc1ccc(CSc2nc3ccccc3[nH]2)cc1	MY330/88		MIC	32 µM
COc1c(N2CCNCC2)c(F)cc2c(=O)c(C(=O)O)cn(C3CC3)c12	14 strains		MIC90	4 µg/mL